Taken from: PubChem BioAssay AID624099 (ICCB-Longwood, 2012)

Aim: 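Host factors E2 relies on to silence an HPV18 LCR reporter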 (primary screen)
Cell system: human C33A cervical carcinoma cells (HPV-negative) stably expressing BPV1 E2 and an HPV18 LCR luciferase reporter
Reagent: siRNA pool against human genes, 40 nM
Time to read-out: 72 h
Detection: 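HPV18 LCR reporter light per well, converted to plate-wise z-scores that exclude control wells, and averaged over triplicate plates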
Scale: mean z-score and z-score: higher = stronger reporter signal, weaker E2 silencing
Hit rule: 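Hit if mean z-score reaches 2 and two or more of three replicate z-scores also reach 2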
Shown is a random part of about 21,000 reagents tested. Over the whole deposit, 497 (2.4%) are marked active. 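Higher z means weaker E2 silencing; only reporter increases were scored, and knock-downs that hurt cell survival may mask genuine repressor factors.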 Reagents against one gene are numbered here.

gene	reagent no.	mean z-score	z-score, replicate A	z-score, replicate B	z-score, replicate C	outcome
TIGD6	1	-1.05	-0.86	-1.16	-1.12	inactive
TCHHL1	1	0.8	1.11	0.49	0.81	inactive
NDRG3	1	-0.3	-0.74	0.1	-0.27	inactive
PTP4A1	1	-0.89	-0.99	-0.75	-0.94	inactive
MPPE1	1	-2.42	-2.48	-2.44	-2.34	inactive
HUS1	1	1.2	1.13	1.4	1.07	inactive
GRHL3	1	-0.72	-0.63	-0.82	-0.71	inactive
STARD9	1	-0.57	-0.76	-0.52	-0.42	inactive
SYN1	1	2.13	2.2	2.26	1.94	active
SPOCK2	1	1.03	1.04	1.08	0.98	inactive
TBX10	1	2.39	2.37	2.65	2.16	active
GPR162	1	0.18	1.36	-0.01	-0.8	inactive
ATAD1	1	1.25	1.5	1.08	1.18	inactive
TMEM222	1	0.35	0.68	0.22	0.15	inactive
ABCE1	1	-1.84	-1.95	-1.62	-1.96	inactive
FBXO43	1	0.23	0.55	-0.12	0.25	inactive
PROSER1	1	0.17	0.25	0.89	-0.62	inactive
SLC12A1	1	0.19	-0.03	0.56	0.03	inactive
FKBP9	1	-1.2	-1.58	-0.88	-1.15	inactive
SCGB2B2	1	-0.92	-0.74	-1.19	-0.84	inactive
LOC286297	1	-0.72	-0.06	-1.05	-1.06	inactive
RSPO2	1	-0.53	-0.83	-0.04	-0.71	inactive
SERPINA4	1	-0.48	-0.31	-0.47	-0.65	inactive
SPATA31C2	1	-1.09	-1.18	-1.01	-1.09	inactive
SLC25A34	1	0.41	0.62	0.52	0.07	inactive
LTBP3	1	-0.2	-0.13	-0.37	-0.11	inactive
H4C2	1	-0.6	-0.49	-0.58	-0.75	inactive
GYPC	1	0.29	0.22	0.22	0.45	inactive
MRGPRX1	1	1.53	1.19	1.88	1.5	inactive
GJB7	1	-0.73	-1.08	-0.66	-0.46	inactive
PLEKHH2	1	0.63	0.81	0.64	0.45	inactive
AOC2	1	-0.75	-0.73	-1.02	-0.51	inactive
ANO9	1	-1	-1.21	-0.54	-1.26	inactive
SSPOP	1	-1.26	-1.25	-1.54	-1	inactive
SSPOP	2	0.97	1.1	0.67	1.14	inactive
SSPOP	3	0.42	0.19	1.03	0.02	inactive
AMPD1	1	0.51	0.61	0.39	0.54	inactive
C4A	1	-0.14	-0.44	-0.27	0.31	inactive
KIAA0513	1	-0.3	-0.37	-0.24	-0.29	inactive
ARRDC4	1	-0.68	-0.64	-0.77	-0.64	inactive
APOL2	1	0.76	0.96	0.62	0.69	inactive
KLHDC2	1	-0.21	-0.28	-0.29	-0.06	inactive
KRT23	1	-0.41	-0.62	-0.24	-0.37	inactive
CHD5	1	0.57	0.53	0.58	0.59	inactive
KLRG1	1	1.16	1.08	1.11	1.28	inactive
ADAMTS5	1	1.3	1.31	1.08	1.52	inactive
TRPM8	1	-0.16	0.11	-0.3	-0.29	inactive
LRRC8D	1	-1.51	-1.79	-1.63	-1.1	inactive
PLA2G4F	1	-0.28	-0.19	-0.17	-0.48	inactive
KIF3A	1	0	-0.27	0.18	0.08	inactive
DECR2	1	0.38	0.27	0.65	0.23	inactive
CMTR1	1	-0.3	-0.44	-0.06	-0.4	inactive
PPARG	1	0.94	1.06	0.83	0.94	inactive
RTL1	1	-0.24	-0.3	-0.31	-0.12	inactive
ZSCAN1	1	-0.77	-0.58	-0.78	-0.95	inactive
SRGN	1	0.63	0.98	0.59	0.31	inactive
CRTAM	1	-1.06	-1.14	-1.05	-0.99	inactive
CFAP276	1	-1.01	-1.25	-1.09	-0.69	inactive
CFAP276	2	-0.72	-0.34	-0.91	-0.91	inactive
LOC388622 (retired record)	1	-0.87	-0.92	-1	-0.69	inactive
BPNT2	1	-0.58	-1	-0.81	0.08	inactive
ACOT7	1	-0.09	0.26	-0.09	-0.45	inactive
KCNC3	1	0.55	0.83	0.43	0.39	inactive
LOC388129 (retired record)	1	0.01	0.19	-0.01	-0.15	inactive
DEFA4	1	1.03	0.81	1.28	0.99	inactive
KCTD18	1	0.81	1.03	0.67	0.73	inactive
CLEC4G	1	0.42	0.1	0.65	0.52	inactive
MOSPD3	1	0.22	0.39	0.13	0.13	inactive
SCRT2	1	1.14	1.1	0.94	1.37	inactive
OR13G1	1	4.1	3.41	4.48	4.41	active
IRX2	1	-0.38	-0.38	-0.49	-0.28	inactive
TRDMT1	1	-0.56	-0.42	-0.53	-0.74	inactive
TCTN3	1	0.73	0.58	0.78	0.82	inactive
